From patent US20110038791A1, “METHODS FOR INHIBITING SIX1 AND EYA PROTEINS” (priority 2008, published 2011)

Amino acid sequences for entries named in this document (tags omitted). Residues count along the entry.
UniProt O00167, 253-538 limits assumed: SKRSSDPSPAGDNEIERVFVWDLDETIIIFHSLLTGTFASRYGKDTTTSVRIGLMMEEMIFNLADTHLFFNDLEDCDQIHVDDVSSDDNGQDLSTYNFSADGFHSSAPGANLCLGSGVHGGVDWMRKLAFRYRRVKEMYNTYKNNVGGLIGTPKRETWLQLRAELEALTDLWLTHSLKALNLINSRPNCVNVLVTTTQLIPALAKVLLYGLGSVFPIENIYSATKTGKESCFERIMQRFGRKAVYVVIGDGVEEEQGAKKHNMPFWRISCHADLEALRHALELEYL

Target: human Eya2 Eya Domain (ED) (Homo sapiens, UniProt O00167)
Experiment: Inhibition of the phosphatase activity of Eya2 Eya Domain (ED) by known phosphatase inhibitors
Assay type: biochemical
Conditions: at the concentrations that typically completely inhibit their cognate phosphatases

## O=[As]c1ccccc1 (stereo not shown)
  effect on ED phosphatase activity: no effect
